Results taken from patent US11247976B2, “Synthetic ligands that modulate the activity of the RhlR quorum sensing receptor” (Wisconsin Alumni Research Foundation, priority 2016, dated 2022).

The chains behind the UniProt entries cited, without tags or fusion partners.
UniProt P54292, whole entry: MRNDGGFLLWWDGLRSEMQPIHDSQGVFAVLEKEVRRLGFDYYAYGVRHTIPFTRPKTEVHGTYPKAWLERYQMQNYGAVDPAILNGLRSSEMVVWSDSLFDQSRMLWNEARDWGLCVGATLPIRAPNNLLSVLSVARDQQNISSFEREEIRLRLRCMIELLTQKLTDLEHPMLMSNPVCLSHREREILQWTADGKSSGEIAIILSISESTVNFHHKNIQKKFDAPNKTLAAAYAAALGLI
UniProt P25084, whole entry: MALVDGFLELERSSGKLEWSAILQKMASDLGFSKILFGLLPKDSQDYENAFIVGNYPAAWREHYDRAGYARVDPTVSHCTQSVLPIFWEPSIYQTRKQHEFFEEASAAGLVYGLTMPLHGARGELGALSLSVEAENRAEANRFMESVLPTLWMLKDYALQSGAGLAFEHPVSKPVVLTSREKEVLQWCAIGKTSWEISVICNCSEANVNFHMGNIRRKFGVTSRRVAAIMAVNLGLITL

How the values were obtained:
RhlR [1] = biological target: T1, RhlR (Pseudomonas aeruginosa, UniProt P54292); assay: E. coli RhlR reporter antagonism assay vs 10 μM BHL (JLD271/pJN105R2/pSC11-rhlI*); format: cell-based, P. aeruginosa; details: negative = agonism stronger than 10 μM BHL alone; for % inhibition (10 μM): compound at 10 μM in the presence of 10 μM BHL; for % inhibition (1 mM): compound at 1 mM in the presence of 10 μM BHL
RhlR [2] = biological target: T1, RhlR; assay: E. coli RhlR reporter agonism assay (JLD271/pJN105R2/pSC11-rhlI*); format: cell-based, P. aeruginosa; details: for Maximum Activation (%) / % activation: E. coli reporter; for Maximum Activation (%): highest activation at any concentration, relative to 1 mM BHL; for % activation: compound at 10 μM, RhlR activity relative to 1 mM BHL
Experimental: (§1) All media and reagents for bacterial culture were purchased from commercial sources. Bacteria were cultured in Luria-Bertani broth (LB) at 37° C. with shaking at 200 rpm unless otherwise noted. The bacterial reporter strains used for this study were (i) the heterologous E. coli strain JLD271 (ΔsdiA) harboring the RhlR expression plasmid pJN105R2 and the rhlI-lacZ transcriptional fusion reporter pSC11-rhlI*, (ii) the heterologous E. coli strain JLD271 (ΔsdiA) harboring the LasR expression plasmid pJN105L and the […] transcriptional fusion reporter pSC11, and (iii) the P. aeruginosa strain PAO-JP2 (ΔlasrhlI) harboring the rhlI-gfp transcriptional fusion reporter prhlI-LVAgfp. Reporter strains JLD271/pJN105R2/pSC11-rhlI* and JLD271/pJN105L/pSC11 were grown in LB containing 100 μg/mL ampicillin and 10 μg/mL gentamicin. Freezer stocks of bacterial strains were maintained at −80° C. in 1:1 LB:50% glycerol.
(§2) To evaluate the modulatory activities of library compounds on RhlR and LasR using E. coli reporters, the strains JLD271/pJN105R2/pSC11-rhlI* and JLD271/pJN105L/pSC11 were used, respectively, as previously described.^38, 51 The following modifications were used in the RhlR agonism reporter assay, non-native compounds (10 μM or 1 mM) were compared to 1 mM BHL as the positive control. Briefly, a subculture was prepared by diluting an overnight culture 1:10 with fresh media containing 100 μg/mL ampicillin and 10 μg/mL gentamicin, and was incubated until it had grown to OD600=0.45. In all assays, L-arabinose was added to a final concentration of 4 mg/mL to induce RhlR expression. For RhlR agonism assays, activities of test compounds were measured relative to 1 mM BHL (the concentration required to induce a maximal level of RhlR activity). For RhlR antagonism assays, test compounds were competed against a concentration of BHL approximately equal to its EC50 value (10 μM). Activity was measured relative to 10 μM BHL. Inhibition was calculated by subtracting 100% from the relative activity value. Thus, 0% inhibition mimics represents no competitive displacement of 10 μM BHL by a test compound. In all assays, modifications were made to the standard Miller assay protocol to accommodate the use of the chlorophenol red-β-D-galactopyranoside (CPRG) β-galactosidase substrate. After cell lysis, 150 μL of the aqueous layer was transferred from each well of a solvent-resistant 96-well microtiter plate to the wells of a new clear, flat-bottom 96-well microtiter plate. CPRG (4 mg/mL in phosphate-buffered saline) was added to each well in 25 μL volumes. Plates were incubated at 30° C. until the positive control wells developed a red color (approximately 30 min). The amount of processed CPRG substrate was assessed by measuring the absorbance of each well at 570 nm. Enzymatic activity was calculated using the following equation: adjusted Miller units=1000·Abs570/(OD600·t·V),
where t is the incubation time of substrate with lysate and V is the volume of culture lysed.
Because LuxR-type receptors are often unstable in solution, preventing the use of in vitro assays to directly assess small molecule agonism and antagonism, reporter gene assays represent a standard method for screening small-molecule libraries for LuxR-type receptor modulation. Previously reported strains for this purpose were used in the current study.^38 Synthetic N-butanoyl L-homoserine lactone (BHL), the native ligand of RhlR, was used as the positive control for receptor activation. Commonly, agonists are measured relative to maximum possible receptor activation within a particular assay medium;^40 because the dose-response curve of BHL is distinctly shallow in these RhlR reporters, a high concentration of BHL is required to maximally activate RhlR. In this study, activation of compounds was measured relative to that elicited by 1 mM BHL (the concentration of BHL used causes no aberrant growth effects in the reporter strain). […]

RhlR [3] = biological target: T1, RhlR; assay: P. aeruginosa RhlR reporter agonism assay (PAO-JP2/prhlI-LVAgfp); format: cell-based; details: highest activation at any concentration, relative to 1 mM BHL
Experimental: as §1, with “Freezer stocks of bacterial strains were maintained at −80° C. in 1:1 LB:50% glycerol.” left out
Plates were incubated at 37° C. for 6 h, and GFP production was monitored by using a Synergy 2 plate reader (λex=500 nm, λem=540 nm; BioTek, Winooski, Vt.) and quantified with Gen5 1.05 software (BioTek). The final OD600 for each well was measured to normalize GFP production to cell density. […]
Library compounds J18 and J24, as well as controls BHL and S4, were evaluated for potency in the native genetic background of RhlR by using the P. aeruginosa strain PAO-JP2 (ΔlasIrhlI) harboring the RhlR reporter plasmid prhlI-LVAgfp (Table 3). […]

LasR = LasR (Pseudomonas aeruginosa, UniProt P25084); assay: Selectivity of RhlR agonism over LasR agonism (E. coli LasR reporter JLD271/pJN105L/pSC11); format: cell-based, P. aeruginosa; details: RhlR % activity divided by LasR % activity, > = negligible activity in LasR reporter
Experimental: as §1, §2
LasR assays were processed using the protocol for the substrate ortho-nitrophenyl-β-galactoside (ONPG) as previously described elsewhere.^53; and LasR antagonism assays were performed versus the EC50 for OdDHL (2 nM).
The selectivity of certain compounds for RhlR over LasR was measured using a LasR reporter strain (details above). Table 6 provides a comparison of selectivity of RhlR agonism over LasR agonism for exemplary compounds. Table 7 provides a comparison of selectivity of RhlR antagonism over LasR antagonism for exemplary compounds.

RhlR [4] = biological target: T1, RhlR; assay: P. aeruginosa RhlR reporter agonism assay (PAO-JP2/prhlI-LVAgfp); format: cell-based; details: read-out: EC50 for RhlR activation, 100 nM OdDHL present

| Compound | % inhibition (10 μM) (RhlR [1]) [%] | % inhibition (1 mM) (RhlR [1]) [%] | Maximum Activation (%) (RhlR [2]) | % activation (RhlR [2]) [%] | Maximum Activation (%) (RhlR [3]) | Fold selectivity of RhlR agonists over LasR agonism (LasR; tested concentration 1 mM) [fold] | Fold selectivity of RhlR agonists over LasR agonism (LasR; tested concentration 10 μm) | EC50 (RhlR [4]) [µM] | EC50 (RhlR [2]; read-out: EC50 for RhlR activation, E. coli JLD271/pJN105R2/pSC11-rhlI*, concentrations ≤1 mM) [µM] |
| --- | --- | --- | --- | --- | --- | --- | --- | --- | --- |
| O=C(N[C@H]1CCOC1=O)C1CCCC1 | −52 | −95 | 100 | 76 | 106 | 4.4 | 12 fold |  |  |
| CCCC(=O)N[C@H]1CCCC1=O | −37 | −82 | 92 |  | 95 | 11 | >36^b fold | 3.82 |  |
| C=CCCC(=O)N[C@H]1CCOC1=O | −21 | −88 | 90 | 54 |  | 3.7 | >54^b fold |  | 7.93 |

Marks after values point to notes of the source that are not given here.
